According to ChEMBL document CHEMBL5247624, “N-sulfonylpiperidinedispiro-1,2,4,5-tetraoxanes exhibit potent in vitro antiplasmodial activity and in vivo efficacy in mice infected with P. berghei ANKA” (Eur J Med Chem, 2022):
pIC50: −log10 of the molar value.

Test system: Plasmodium falciparum
Assay: Antiplasmodial activity against erythrocytic stage of chloroquine-sensitive Plasmodium falciparum 3D7 assessed as inhibition of parasite growth incubated for 3 days by HRP2-ELISA assay

Work on `C1CCC2(C1)OOC1(CCCC1)OO2` yielded a pIC50 of 7.27.
